Test results reported in publication PMC8083904 (ACS infectious diseases, 2020).

Assays:
[1] = test system: NC(=O)c1ccc[n+]([C@@H]2O[C@H](COP(=O)(O)OP(=O)(O)OC[C@H]3O[C@@H](n4cnc5c(N)ncnc54)[C@H](O)[C@@H]3O)[C@@H](O)[C@H]2O)c1; test: purified protein; details: pH 7.4; 30.0 °C; varied: cofactor
[2] = test system: NC(=O)c1ccc[n+]([C@@H]2O[C@H](COP(=O)(O)OP(=O)(O)OC[C@H]3O[C@@H](n4cnc5c(N)ncnc54)[C@H](OP(=O)(O)O)[C@@H]3O)[C@@H](O)[C@H]2O)c1; test: purified protein; details: pH 7.4; 30.0 °C; varied: cofactor

## MEZ (Mtb malic enzyme) (Mycobacterium tuberculosis H37Rv)
[1]
  K0.5: 0.5 ± 0.03 mM
[2]
  K0.5: 1.4 ± 0.02 mM
